The target in this experiment is Protease (Human immunodeficiency virus 1, UniProt Q9YQ12). The experiment is described as follows: Inhibition of wild type HIV1 protease by FRET assay.

One may read the Ki as a measure of affinity in units of concentration, obtained from inhibition or displacement. Read a high Ki as a looser hold on the target. Take `CC[C@H](C)CN(C[C@@H](O)[C@H](Cc1ccccc1)NC(=O)OCCNC(=O)OC(C)(C)C)S(=O)(=O)c1ccc2ncsc2c1`: the inhibition constant Ki amounted to 0.23 nM.
To `CC[C@H](C)CN(C[C@@H](O)[C@H](Cc1ccccc1)NC(=O)O[C@@H]1CCOC1=O)S(=O)(=O)c1ccc2ncsc2c1` belongs 121 nM; to `CC[C@H](C)CN(C[C@@H](O)[C@H](Cc1ccccc1)NC(=O)O[C@H](C)CCC(C)=O)S(=O)(=O)c1ccc2ncsc2c1`, 0.303 nM.

These data come from ChEMBL document CHEMBL2163218, “Design, synthesis, and biological and structural evaluations of novel HIV-1 protease inhibitors to combat drug resistance” (J Med Chem, 2012).
